Compound potency records, mixed from different reports. Data source: NIAID ChemDB in PubChem.

Common to all: tests in culture; organism: Human cytomegalovirus; read by: plaque count; read-out: EC50

Lines come from different laboratories, so protocols vary.

smiles	strain or isolate	cell line	mutations	result
CNc1cc2c(=O)c(C(=O)O)cn(N(C)C)c2cc1N1CCN(c2ccccn2)CC1	AD169	HFF		10.3 µM
COCCOCn1cc(C(N)=S)c2c(N)ncnc21				0.4–1 µM
CCCCCCCCCCCCCCCCOP(=O)(O)CO[C@H](CO)Cn1ccc(N)nc1=O	C8914-6	HFF		0.1 µM
Nc1nc2c(ncn2COC(CO)CO)c(=O)[nH]1	AD169	HFF		3 µM
OC[C@H]1O[C@@H](n2c(Br)nc3cc(Cl)c(Cl)cc32)C[C@@H]1O	TOWNE	HFF		35 µM
CCOP(=O)(O)CCC(O)CCOCn1cnc2c(=O)[nH]c(N)nc21	AD169	MRC-5		>2000 µM
CCCSc1nc(N)nc2c1ncn2/C=C1/C[C@@H]1CO		HFF		3 µM
CCOP(=O)(O)CCCOCn1c(Br)nc2c(=O)[nH]c(N)nc21	AD169	MRC-5		312 µM
Nc1nc(OCC2CC2)c2ncn(/C=C3/C[C@@H]3CO)c2n1		HFF		1.7 µM
CN(C)c1cc2c(=O)c(C(=O)O)cn(C)c2cc1N1CCN(c2ccccn2)CC1	AD169	HFF		16 µM
COCC(CCP(=O)(O)O)OCn1cnc2c(Cl)nc(N)nc21	AD169	MRC-5		778 µM
CCCCCCCCCCCCCCCCOCCCOP(=O)(O)CCCOCn1cnc2c(NC3CC3)nc(N)nc21	AD169	HFF		1.6 µM
CCOP(=O)(CCC(COC)OCn1cnc2c(=O)[nH]c(N)nc21)OCC	AD169	MRC-5		133 µM
CCCCCCCCCCCCOCCCOP(=O)(O)CO[C@H](CO)Cn1ccc(N)nc1=O	VR4955 (foscarnet-resistant)	HFF		0.01 µM
Cc1cccn2c(CSCc3ccccc3)cnc12	DAVIS	HEL		0.2 µg/mL
Nc1nc(N)c2ncn(COCCCP(=O)(O)O)c2n1	AD169	HFF		>100 µM
COc1cccc(N2CCN(c3cc4c(cc3N)c(=O)c(C(=O)O)cn4C3CC3)CC2)c1	AD169	HFF		2.6 µM
Cc1ccccc1CSCc1cnc2c(Br)cc(Br)c(C)n12	DAVIS	HEL		>50 µg/mL
Nc1nc2c(ncn2COC(CO)CO)c(=O)[nH]1	R56 (BDCRB-resistant)	HFF		2.6 µM
CCC(CO)n1cc(C(=O)O)c(=O)c2cc(N)c(N3CCN(c4ccccn4)CC3)cc21	AD169	HFF		>25 µM
Nc1nc2c(ncn2C[C@@H]2CC[C@H](P(=O)(O)O)O2)c(=O)[nH]1		WI-38		0.5–1 µg/mL
Nc1cn(/C=C2/C[C@H]2CO)c(=O)[nH]c1=O	TOWNE	HFF		28.5 µM
CC(C)Nc1nc2cc(Cl)c(Cl)cc2n1[C@H]1O[C@@H](CO)[C@H](O)[C@@H]1O	R56 (BDCRB-resistant)	HFF		86 µM
COc1nc2cc(Cl)c(Cl)cc2n1[C@H]1C[C@H](O)[C@@H](CO)O1	TOWNE	HFF		>100 µM
O=C1c2sccc2N(Cc2ccc(Cl)c(Cl)c2)S(=O)(=O)N1Cc1ccccc1	AD169	MRC-5		4 µM
Cc1cc(C2CCCCC2)n(O)c(=O)c1	AD169	HFF		0.33 µM
Nc1ccn([C@@H]2O[C@@H](CO)[C@H](O)[C@H]2O)c(=O)n1	WF1	FLOW 2002		6 µg/mL
C=CCOc1nc(N)nc2c1ncn2/C=C1/C[C@@H]1CO		HFF		2.1 µM
CCCCCCCCCCCCCCCCCCOC[C@H](COP(=O)(O)CO[C@H](CO)Cn1ccc(N)nc1=O)OCc1ccccc1	GDGrP53	HFF		0.02 µM
COC(=O)C(C)NP(=O)(OC[C@@H]1C/C1=C\n1cc(C)c(=O)[nH]c1=O)Oc1ccccc1	TOWNE	HFF		>100 µM
Cc1cccc(CSCc2cnc3c(Br)cc(Br)c(C)n23)c1	DAVIS	HEL		>20 µg/mL
Nc1cc2c(=O)c(C(=O)O)cn(C3CC3)c2nc1N1CCN(c2ccccn2)CC1	AD169	HFF		0.9 µM
Cn1cc(C(=O)O)c(=O)c2cc(N)c(N3CCN(c4nc5ccccc5o4)CC3)cc21	DAVIS	HEL		0.11 µg/mL
Nc1nc(=O)n([C@H]2O[C@@H](CO)[C@H](O)[C@H]2F)cc1I	WF1	FLOW 2002		>100 µg/mL
CCCCCCCCCCCCCCCCOCCCOP(=O)(O)CCCOCn1cnc2c(N)nc(N)nc21	AD169	HFF		2.85 µM
CCCCCCCCCCCCOCCCOP1(=O)CO[C@@H](Cn2ccc(N)nc2=O)CO1	AD169	HFF		0.007 µM
Nc1ccn([C@@H]2C[C@@H](O)[C@H](CO)O2)c(=O)n1	WF1	FLOW 2002		>100 µg/mL
CCOP(=O)(O)CCC(CO)OCn1cnc2c(=O)[nH]c(N)nc21	EC (ganciclovir-susceptible)	MRC-5		8 µg/mL
CNc1cc2c(=O)c(C(=O)O)cn(C)c2cc1N1CCN(c2ccccn2)CC1	AD169	HFF		1.1 µM
C=CCO[C@@H]1[C@@H](OCC=C)[C@H](Cc2ccccc2)O[C@@H]2CO[C@@H](c3ccccc3)O[C@@H]12	DAVIS	HEL		>2 µg/mL
Nc1nc2cc(Cl)c(Cl)cc2n1[C@H]1C[C@H](O)[C@@H](CO)O1	TOWNE	HFF		30 µM
Nc1nc(NC2CC2)c2ncn(C=C3CC3CO)c2n1	759rD100	HFF		16.9 µM
O=C(NCc1ccc(Cl)cc1)c1c[nH]c2ccc(C#CCO)cc2c1=O	DAVIS			1.7 µM
CNc1nc2cc(Cl)c(Cl)cc2n1[C@@H]1O[C@@H](CO)[C@H](O)[C@H]1O		HFF		>100 µM
Nc1nc2c(ncn2[C@@H]2C[C@H](CO)[C@H]2CO)c(=O)[nH]1	AD169	WI-38		2–4 µM
Cc1c(Br)cc(Br)c2ncc(CSCc3ccccc3)n12	DAVIS	HEL		>50 µg/mL
Nc1nc(N)c2ncn(C34CCC(O)C3(CO)C4)c2n1		HFF		>20 µg/mL
Cc1c(Br)cc(Br)c2ncc(CSCc3ccccc3Cl)n12	DAVIS	HEL		>5 µg/mL
OC[C@H]1O[C@@H](n2c(Cl)nc3cc(Cl)c(Cl)cc32)C[C@@H]1O	TOWNE	HFF		20 µM
O=C(O)c1cn(C2CC2)c2nc(N3CCN(c4ccccn4)CC3)ccc2c1=O	AD169	HFF		2.3 µM
Cc1c(Br)cc(Br)c2ncc(CSCc3ccc(F)cc3)n12	DAVIS	HEL		>5 µg/mL
Nc1nc2c(ncn2C[C@@H]2CC[C@@H](P(=O)(O)O)O2)c(=O)[nH]1		WI-38		0.1–1 µg/mL
Cc1c(Br)cc(Br)c2ncc(CSCc3cccc(C(F)(F)F)c3)n12	DAVIS	HEL		>50 µg/mL
Nc1nc2c(ncn2COC(CO)CO)c(=O)[nH]1	RC11	MRC-5		12.75 µM
Cc1cc(C)c(OC(=O)c2ccc(Cl)cc2)c(=O)c(C)c1	AD169	HFF		1.94 µM
COC(=O)C(C)NP(=O)(OC[C@@H]1C/C1=C\n1cc(N)c(=O)[nH]c1=O)Oc1ccccc1	TOWNE	HFF		>100 µM
Cc1cn([C@@H]2O[C@H](CO)[C@H]2CO)c(=O)[nH]c1=O	TOWNE	HFF		>100 µg/mL
Nc1ccn([C@H]2O[C@@H](CO)[C@H](O)[C@H]2O)c(=O)n1	WF1	FLOW 2002		>100 µg/mL
CC(=O)NC(CCc1ccc(Cl)c(Cl)c1)c1cccc(O)c(=O)c1	AD169	HFF		0.47 µM
Nc1nc2c(ncn2C[C@H]2CC[C@H](P(=O)(O)O)O2)c(=O)[nH]1		WI-38		>50 µg/mL
CCCCCCCC/C=C\CCCCCCCOCCCOP(=O)(O)CO[C@H](CO)Cn1ccc(N)nc1=O	AD169	HFF		0.002 µM
OC[C@@H]1O[C@@H](n2c(Cl)nc3cc(Cl)c(Cl)cc32)[C@H](O)[C@H]1O		HFF		51 µM
Nc1nc2c(ncn2C=C2CC2CO)c(=O)[nH]1	C8708/17-1-1	HFF		9.4 µM
O=C1c2sccc2N(Cc2ccc(Cl)cc2)S(=O)(=O)N1Cc1ccccc1	AD169	MRC-5		8.3 µM
CCCCCCCC/C=C\CCCCCCCCOCCOP(=O)(O)CCCOCn1cnc2c(=O)[nH]c(N)nc21	AD169	HFF		0.59 µM
Nc1cc2c(=O)c(C(=O)O)cn(N)c2cc1N1CCN(c2ccccn2)CC1	AD169	HFF		19.5 µM
CCOP(=O)(O)CCCCCCCOCn1cnc2c(=O)[nH]c(N)nc21	AD169	MRC-5		>2580 µM
Nc1nc(=O)n([C@@H]2O[C@@H](CO)[C@H](O)[C@H]2F)cc1I	WF1	FLOW 2002		>100 µg/mL
[O-][n+]1onc2ncnc(N3CC[N+]4(CC3)CC[N+]3(CCN(c5ncnc6no[n+]([O-])c56)CC3)CC4)c21	Clinical isolate	HELF	Ganciclovir-resistant	0.15 µM
CCOP(=O)(CCCOCn1cnc2c(=O)[nH]c(N)nc21)OCC	AD169	MRC-5		>2780 µM
COc1ccc(CSCc2cnc3c(Br)cc(Br)c(C)n23)cc1	AD169	HEL		>50 µg/mL
Nc1ccn(C[C@@H](CO)OCP(=O)(O)O)c(=O)n1	Coffman	HFF		1.6 µM
Nc1nc2c(ncn2COCCCP(=O)(O)O)c(=O)[nH]1	AD169	MRC-5		54 µM
Cc1cn([C@@H]2OC(O[Si](C)(C)C(C)(C)C)C3(OS(=O)(=O)C=C3NCCC(=O)OCc3ccccc3)C2O[Si](C)(C)C(C)(C)C)c(=O)n(C)c1=O	AD169	HEL		>400 µM
Nc1nc2c(ncn2COCCO)c(=O)[nH]1	AD169	HFF		40 µM
Cn1cc(C(=O)O)c(=O)c2cc(N)c(N3CCN(c4cccc(C(F)(F)F)c4)CC3)cc21	AD169	HEL		0.86 µg/mL
Nc1nc2c(ncn2COC(CO)CCP(=O)(O)O)c(=O)[nH]1	AD169	MRC-5		7.8 µM
Nc1cc2c(=O)c(C(=O)O)cn(C3CC3)c2cc1N1CCN(c2nc3ccccc3s2)CC1	DAVIS	HEL		0.0076 µg/mL
O=c1ccn([C@@]23C[C@H](O)[C@@H](CO)[C@@H]2C3)c(=O)[nH]1		HFF		>100 µg/mL
Cc1c(Br)cc(Br)c2ncc(CSCc3ccccc3F)n12	DAVIS	HEL		>5 µg/mL
O=C1C=CN(Cc2ccc(Cl)cc2)S(=O)(=O)N1Cc1ccc(Cl)cc1	AD169	MRC-5		12.5 µM

9 of the rows above, restated:

smiles,strain or isolate,cell line,mutations,result
Nc1cc2c(=O)c(C(=O)O)cn(C3CC3)c2cc1N1CCN(c2nc3ccccc3s2)CC1,DAVIS,HEL,,0.0076 µg/mL
OC[C@H]1O[C@@H](n2c(Br)nc3cc(Cl)c(Cl)cc32)C[C@@H]1O,TOWNE,HFF,,35 µM
CN(C)c1cc2c(=O)c(C(=O)O)cn(C)c2cc1N1CCN(c2ccccn2)CC1,AD169,HFF,,16 µM
CCCSc1nc(N)nc2c1ncn2/C=C1/C[C@@H]1CO,,HFF,,3 µM
OC[C@@H]1O[C@@H](n2c(Cl)nc3cc(Cl)c(Cl)cc32)[C@H](O)[C@H]1O,,HFF,,51 µM
Cc1cn([C@@H]2OC(O[Si](C)(C)C(C)(C)C)C3(OS(=O)(=O)C=C3NCCC(=O)OCc3ccccc3)C2O[Si](C)(C)C(C)(C)C)c(=O)n(C)c1=O,AD169,HEL,,>400 µM
O=C(NCc1ccc(Cl)cc1)c1c[nH]c2ccc(C#CCO)cc2c1=O,DAVIS,,,1.7 µM
CNc1cc2c(=O)c(C(=O)O)cn(C)c2cc1N1CCN(c2ccccn2)CC1,AD169,HFF,,1.1 µM
Nc1ccn([C@@H]2O[C@@H](CO)[C@H](O)[C@H]2O)c(=O)n1,WF1,FLOW 2002,,6 µg/mL

ECn is the concentration giving n% inhibition of infection, replication or growth. Blank or dashed fields: not listed here. Two numbers with a dash give a range or band.